Compound potency records, mixed from different reports. Data source: NIAID ChemDB in PubChem.

Shared fields: growth or infection tests; organism: Mycobacterium tuberculosis

Two numbers with a dash give a range or band.

SMILES,endpoint,strain or isolate,method,dose,changes,setting,value
C[C@H]1COc2c(N3CCN(C)CC3)c(F)cc3c(=O)c(C(=O)O)cn1c23,MIC,H37Rv,,,,,0.5 µg/mL
Cc1ccccc1Sc1ncccn1,MIC90,H37Rv,,,,,>6.25 µg/mL
Cc1ccc([C@]2(C)CC[C@@H]3C[C@@]32C)c(O)c1,MIC,H37Rv,,,,,64 µg/mL
Cc1cc(=O)oc2cc(OCCN3CCC(Cc4ccccc4)CC3)ccc12,inhibition,H37Rv,fluorescence,100 µM,,,91.82%
COc1c(N2C[C@@H]3CCCN[C@@H]3C2)c(F)cc2c(=O)c(C(=O)O)cn(C3CC3)c12,MIC,Isolate TN6515,,,,,0.037 µg/mL
NC(=O)N1CCN(c2ccc(N3C[C@H](CO)OC3=O)cc2F)C=N1,MIC,H37Rv,GFP / reporter gene,,,,1000 µg/mL
Cc1ccc2[nH]c(O)c(N=NC(=S)NC3CCCCC3)c2c1,EC90,H37Rv,broth dilution / resazurin,,,,0.795 µg/mL
Cc1onc(-c2ccccc2)c1C(=O)N[C@@H]1C(=O)N2[C@@H]1SC(C)(C)[C@@H]2C(=O)O,inhibition,Gordon,colony count,10 µg/mL,,21 d,99%
NNC(=O)c1ccncc1,MIC,ATCC 35822,absorbance,,Isoniazid-resistant,,>200 µM
COC(=O)N[C@H]1CN(c2ccc(N3C=NN(C)CC3)c(F)c2)C(=O)O1,MIC90,20 clinical isolates,resazurin,,,,1000 µg/mL
O=c1nc(SCc2ccc(F)cc2)c2[nH]cnc2[nH]1,inhibition,H37Rv,,6.25 µg/mL,,,0%
O=C(/C=C/C(=O)c1ccccc1)NC[C@H]1CN(c2ccc(N3CCCCC3)c(F)c2)C(=O)O1,MIC,10 clinical isolates resistant,,,,,>16 µg/mL
CCC1CN(c2c(F)cc3c(=O)c(C(=O)O)cn(C4CC4)c3c2OC)CCN1,MIC,Isolate TN7791,,,,,0.1 µg/mL
COC(=O)NC[C@H]1CN(c2ccc(N3C=NN(C(N)=O)CC3)c(F)c2)C(=O)O1,MIC,H37Rv,GFP / reporter gene,,,,250 µg/mL
CCC[C@@H](OC(C)=O)C1=C(Br)[C@@](CI)(OC)OC1=O,MIC,H37Rv,,,,,>128 µg/mL
CO/N=C1\CN(c2nc3c(cc2F)c(=O)c(C(=O)O)cn3C2CC2)CC1CN,MIC90,44 isolates (resistant),,,,,8 µg/mL
COc1cc(O)c2c(c1O)C(=O)c1cc(C)ncc1C2=O,inhibition,H37Rv,BACTEC,12.8 µg/mL,,,36%
CC[C@@H](CO)NCCN[C@@H](CC)CO,MIC,H37Rv,resazurin,,,,7.22 µM
Cc1ccc(NC(=O)c2ccc(Cl)cc2Cl)cc1Cl,inhibition,H37Rv,BACTEC,12.5 µg/mL,,,66%
CN(C)C/C=C(/c1ccc(Br)cc1)c1ccc(-c2ccc(Br)cc2)cc1,MBC,H37Ra,,,,,16 µg/mL
CO[C@H]1/C=C/O[C@@]2(C)Oc3c(C)c(O)c4c(O)c(c5c(c4c3C2=O)NC2(CCN(CC(C)C)CC2)N=5)=NC(=O)/C(C)=C\C=C\[C@H](C)[C@H](O)[C@@H](C)[C@@H](O)[C@@H](C)[C@H](OC(C)=O)[C@@H]1C,MIC,28 (rifampicin-susceptible),,,,,≤0.062 µg/mL
CNC(=S)N=Nc1c(O)n(CN2CCOCC2)c2ccc(OC(F)(F)F)cc12,EC90,H37Rv,broth dilution / resazurin,,,,>100 µg/mL
CCN(CC)c1ccc(Cc2ccc(N(CC)CC)cc2Br)c(Br)c1,MIC bound,H37Rv,BACTEC,,,,>12.5 µg/mL
CCNC(=S)N=Nc1c(O)[nH]c2ccc(OC(F)(F)F)cc12,EC50,H37Rv,broth dilution / resazurin,,,,0.767 µg/mL
C[P+]1(C)CCc2c1ccc1ccccc21,MIC,H37Rv,resazurin,,,,>6.25 µg/mL
CNn1cc(C(=O)O)c(=O)c2cc(F)c(N3CCN(C)CC3)cc21,MIC50,19 strains,,,,,6.2 µg/mL
CCOC(=O)NN(C(=O)OCC)c1ccc(N=Nc2ccc(OC)cc2)n1C,inhibition,H37Rv,BACTEC,6.25 µg/mL,,,31%
Cc1cc(=O)oc2cc(OCc3ccc(Br)cc3)ccc12,inhibition,H37Rv,fluorescence,100 µM,,,66.84%
Oc1c(N=NC(=S)Nc2ccc(Br)cc2)c2cc(OC(F)(F)F)ccc2n1CN1CCOCC1,EC50,H37Rv,broth dilution / resazurin,,,,2.55 µg/mL
NC1[C@H]2CN(c3nc4c(cc3F)c(=O)c(C(=O)O)cn4-c3ccc(F)cc3F)C[C@@H]12,MIC90,250 isolates,,,,,64 µg/mL
Cc1c(/C=N/NC(=O)CCCC(=O)N/N=C/c2c(C)n(C)n(-c3ccccc3)c2=O)c(=O)n(-c2ccccc2)n1C,inhibition,H37Rv,BACTEC,12.5 µg/mL,,,11%
N#C/C(=C/c1ccccc1Cl)n1nnc2ccccc21,MIC50,ATCC 27294,,,,,13.8 µM
C[C@@H]1[C@@H](C)C(C)(C)[C@@H](C)C[C@H]1NC(=O)/C=C/C=C/c1ccc2c(c1)OCO2,MIC,H37Rv,resazurin,,,,1.14 µM
CC1(C)OC(N)=C(C(N)=O)C1c1ccc(Cl)cc1,inhibition,H37Rv,BACTEC,12.5 µg/mL,,,-13%
CC(C)=CCC/C(C)=C/CC/C(C)=C/CO,MIC,H37Rv,,,,,8 µg/mL
CC[C@@H](C)C(=O)O[C@H]1[C@H](O)[C@H]2[C@@H](CN3C[C@@H](C)CC[C@H]3[C@@]2(C)O)[C@@H]2C[C@]34O[C@]5(O)[C@@H](OC(=O)[C@@](C)(O)CC)CC[C@@]3(C)[C@@H]5[C@@H](OC(C)=O)[C@@H](OC(C)=O)[C@H]4[C@@]21O,MIC,H37Rv,BACTEC,,,,≥128 µg/mL
Cc1onc(-c2ccccc2Cl)c1C(=O)N[C@@H]1C(=O)N2[C@@H]1SC(C)(C)[C@@H]2C(=O)O,inhibition,Gordon,colony count,25 µg/mL,,21 d,100%
C=C[C@](C)(Cl)[C@@H](Br)/C=C/[C@](C)(Cl)CBr,MIC,H37Rv,,,,,>128 µg/mL
Cc1cccc(C)c1Sc1nc(Cl)nc2nc[nH]c12,MIC,H37Ra,,,,,>12.8 µg/mL
C=C1C(=O)O[C@@H]2[C@H]3C(C)=CC[C@@H](O)[C@]3(C)CC[C@@H]12,MIC,H37Rv,,,,,64 µg/mL
Cc1ccc2nc(-c3ccc(-n4on4-c4ccc(/C=C/c5ccc(-n6on6-c6ccc(-c7nc8ccc(C)cc8s7)cc6)cc5S(=O)(=O)O)c(S(=O)(=O)O)c4)cc3)sc2c1,MIC bound,H37Rv,BACTEC,,,,>6.25 µg/mL
O=c1cc(C(F)(F)F)c2ccc(OCc3ccc(Br)cc3)cc2o1,inhibition,H37Rv,fluorescence,1 µM,,,<0%
N#Cc1cc2cc3c4c(c2oc1=O)CCCN4CCC3,MIC bound,H37Rv,BACTEC,,,,>12.5 µg/mL
CC(=O)NC[C@H]1CN(c2ccc(N3C=NOCC3)c(F)c2)C(=O)O1,MIC90,20 clinical isolates,resazurin,,,,500 µg/mL
O=c1nc(SCc2cccc3ccccc23)c2[nH]cnc2[nH]1,MIC90,H37Rv,,,,,>6.25 µg/mL
CC1(C)[C@@H]2CC[C@@]1(C)[C@@H](NC(=O)/C=C/C=C/c1ccc3c(c1)OCO3)C2,MIC,H37Rv,resazurin,,,,0.35 µM
N#C/C(=C/c1ccccc1Br)n1nnc2ccccc21,MIC50,ATCC 27294,,,,,9 µM
CN[C@@H]1[C@H](O[C@H]2[C@H](O[C@H]3[C@H](O)[C@@H](O)[C@H](N=C(N)N)[C@@H](O)[C@@H]3N=C(N)N)O[C@@H](C)[C@]2(O)C=O)O[C@@H](CO)[C@H](O)[C@H]1O,MIC,MTB14 (S),,,,,0.3 µg/mL
C/C(=N\NS(=O)(=O)c1ccc(C)cc1)c1c(O)cc(C)oc1=O,MIC bound,H37Rv,BACTEC,,,,>12.5 µg/mL
N#C/C(=C/c1ccccc1[N+](=O)[O-])n1nnc2ccccc21,MIC90,ATCC 27294,,,,,>100 µM
C=C1C[C@H](O)[C@H](Br)C(C)(C)[C@]12CC=C(C)CC2,MIC,H37Rv,,,,,32 µg/mL
CSc1ccc(C(=O)CCC(=O)NC[C@H]2CN(c3ccc(-n4cncn4)c(F)c3)C(=O)O2)cc1,MIC,10 clinical isolates sensitive,,,,,0.5–2 µg/mL
N#C/C(=C\c1cccc(F)c1)n1nnc2ccccc21,MIC90,ATCC 27294,,,,,>100 µM
COc1ccc(Sc2nc(Cl)nc3nc[nH]c23)cc1OC,MIC,H37Ra,,,,,>12.8 µg/mL
NCCCn1[nH]c(=O)c2cnccc2c1=O,MIC bound,H37Rv,BACTEC,,,,>12.5 µg/mL
CN1C=N[C@H](C(=O)O)C[C@]1(C)COC(=O)c1ccc[nH]1,MIC,H37Rv,,,,,>128 µg/mL
OC1C[C@H]2CC[C@@H](C1)N2,inhibition,H37Rv,BACTEC,12.5 µg/mL,,,3%
CC(=O)N[C@H]1CN(c2ccc(N3C=NN(S(N)(=O)=O)CC3)c(F)c2)C(=O)O1,MIC,H37Rv,GFP / reporter gene,,,,250 µg/mL
CC1(C)[C@@H]2CC[C@@]1(C)[C@H](O)[C@@H]2NC(=O)/C=C/C=C/c1ccc2c(c1)OCO2,MIC,H37Rv,resazurin,,,,0.17 µM
COC(=O)NC[C@H]1CN(c2ccc(N3C=NOCC3)c(F)c2)C(=O)O1,MIC90,20 clinical isolates,resazurin,,,,500 µg/mL
Cc1c(Cl)c(=O)oc2cc(OCc3ccccc3)ccc12,inhibition,H37Rv,fluorescence,50 µM,,,12.09%
CN(C)CCNC(=O)c1cccc2c(=O)c3ccccc3oc12,MIC bound,H37Rv,BACTEC,,,,>12.5 µg/mL
CC(C)CCC[C@@H](C)CCC[C@@H](C)CCCC(C)CC(=O)O,MIC,H37Rv,,,,,>128 µg/mL
Clc1c(Cl)c2c(Cl)c(Cl)c1C[P+](c1ccccc1)(c1ccccc1)CCC[P+](c1ccccc1)(c1ccccc1)Cc1c(Cl)c(Cl)c(c(Cl)c1Cl)C[P+](c1ccccc1)(c1ccccc1)CCC[P+](c1ccccc1)(c1ccccc1)C2,MIC bound,H37Rv,resazurin,,,,<6.25 µg/mL
Cc1ccc2[nH]c(O)c(N=NC(=S)Nc3ccccc3Br)c2c1,EC50,H37Rv,broth dilution / resazurin,,,,2.898 µg/mL
Cc1c(Cl)c(=O)oc2cc(OCCN3CCN(Cc4ccc(Br)cc4)CC3)ccc12,inhibition,H37Rv,fluorescence,50 µM,,,57.53%
O=S1OCC#CCOS(=O)OCC#CCO1,MIC bound,H37Rv,BACTEC,,,,>12.5 µg/mL
Cc1cccc(Sc2nc(Cl)nc3nc[nH]c23)c1,inhibition,H37Rv,,6.25 µg/mL,,,0%
O=C(Nc1ccccc1F)Sc1c(Cl)c(Cl)nc(Cl)c1Cl,MIC bound,H37Rv,resazurin,,,,>6.25 µg/mL
O=C(CCC(=O)c1ccc(Cl)cc1)NC[C@H]1CN(c2ccc(N3CCOCC3)c(F)c2)C(=O)O1,MIC,ATCC 27294,,,,,25 µg/mL
NC[C@@H]1O[C@H](O[C@H]2[C@@H](O)[C@H](O[C@@H]3[C@@H](O)[C@H](N)C[C@H](N)[C@H]3O[C@H]3O[C@H](CO)[C@@H](O)[C@H](O)[C@H]3N)O[C@@H]2CO)[C@H](N)[C@@H](O)[C@@H]1O,MIC,MTB23 (S),,,,,<0.09 µg/mL
COc1ccccc1Sc1ccncc1,inhibition,H37Rv,,6.25 µg/mL,,,63%
COc1cc(C(c2c(O)c3ccccc3oc2=O)c2c(O)c3ccccc3oc2=O)cc(OC)c1OC,inhibition,H37Rv,BACTEC,12.5 µg/mL,,,4%
C=C1C(=O)OC2C1CCC(C)C1CCC(=O)C12C,MIC,H37Rv,,,,,32 µg/mL
CC1(C)[C@@H]2CC[C@@]1(C)[C@H](NC(=O)/C=C/C=C/c1ccc3c(c1)OCO3)C2,MIC,H37Rv,resazurin,,,,0.35 µM
CCCCCCCCCCS(=O)(=O)Nc1ccc(C(=O)NN)cc1,inhibition,H37Rv,BACTEC,12.5 µg/mL,,,74%
Cc1ccc(Sc2nc(Cl)nc3nc[nH]c23)cc1,MIC90,H37Rv,,,,,>6.25 µg/mL
CC(=O)NC[C@H]1CN(c2ccc(N3C=NN(C(N)=O)CC3)c(F)c2)C(=O)O1,MIC,H37Rv,GFP / reporter gene,,,,125 µg/mL
CN(C)C1=NC2=S(SC(Nc3ccccc3)=N2)S1,inhibition,H37Rv,resazurin,6.25 µg/mL,,,58%
CCCCCCCCCCCCCCC(C)O,MIC,H37Rv,,,,,8 µg/mL
Cc1ccc2c(c1)c(N=NC(=S)Nc1ccc([N+](=O)[O-])cc1)c(O)n2C,EC50,H37Rv,broth dilution / resazurin,,,,>100 µg/mL
[C-]#[N+][C@@]1(C)CC[C@H]2[C@H]3C(=C(C)CC[C@@H]31)[C@H](C=C(C)C)C[C@@H]2C,MIC,H37Rv,,,,,4 µg/mL

For reference, 5 entries again:

SMILES,endpoint,strain or isolate,method,dose,changes,setting,value
COc1c(N2C[C@@H]3CCCN[C@@H]3C2)c(F)cc2c(=O)c(C(=O)O)cn(C3CC3)c12,MIC,Isolate TN6515,,,,,0.037 µg/mL
Cc1cc(=O)oc2cc(OCCN3CCC(Cc4ccccc4)CC3)ccc12,inhibition,H37Rv,fluorescence,100 µM,,,91.82%
O=S1OCC#CCOS(=O)OCC#CCO1,MIC bound,H37Rv,BACTEC,,,,>12.5 µg/mL
CC[C@@H](CO)NCCN[C@@H](CC)CO,MIC,H37Rv,resazurin,,,,7.22 µM
CC1(C)OC(N)=C(C(N)=O)C1c1ccc(Cl)cc1,inhibition,H37Rv,BACTEC,12.5 µg/mL,,,-13%

ECn is the concentration giving n% inhibition of infection, replication or growth. Percent inhibition refers to the dose given; in toxicity tests it is the harm to the cells. Conditions beyond the fields shown may differ between rows. A number after MIC or MFC names an inhibition level or a share of isolates. An empty or dashed field is not shown. MIC bound comes from a single tested concentration.